Results published in paper PMC9228152, “New Amino Naphthoquinone Derivatives as Anti-Trypanosoma cruzi Agents Targeting Trypanothione Reductase” (Pharmaceutics, 2022).

Key:
[1] = test system: T. cruzi epimastigotes, NINOA strain; experiment: Growth inhibition of T. cruzi epimastigotes, NINOA strain; assay type: cell-based, Trypanosoma cruzi; details: SI = IC50 on J774 cells / IC50 T. cruzi epimastigotes NINOA
Protocol: (§1) Epimastigotes from T. cruzi strains NINOA and INC-5 were cultured in BHI (brain heart infusion broth, 89%) axenic medium, as reported in [26], at an initial concentration of 1 × 10^6 parasites/mL, at 28 °C, supplemented with 10% foetal bovine serum and 1% sodium penicillin-streptomycin. […] On the last day, the absorbance of the cultures was measured and related to the control. All measurements were carried out in triplicate. No toxic effect was attributable to DMSO. Since parasite growth is exponential, the data were analysed according to a first order equation, and the respective growth constant (k), corresponding to the slope, was calculated for controls and parasites treated with different drug concentrations. From these measurements, percentage growth inhibition (%GI) and half-maximal inhibitory concentration (IC50) values were calculated.

[2] = test system: T. cruzi epimastigotes, INC-5 strain; experiment: Growth inhibition of T. cruzi epimastigotes, INC-5 strain; assay type: cell-based, Trypanosoma cruzi; details: SI = IC50 on J774 cells / IC50 T. cruzi epimastigotes INC-5
Protocol: as §1

[3] = test system: T. cruzi trypomastigotes, INC-5 strain; assay type: cell-based; details: SI = IC50 on J774 cells / LC50 T. cruzi trypomastigotes INC-5
Protocol: (§2) Those compounds with the lowest IC50 values in the epimastigote studies of each strain were evaluated in trypomastigotes. For this purpose, bloodstream trypomastigotes of INC-5 and NINOA strains were used for peritoneal injection into 6−8-week-old CD1 mice. The peak of parasitemia was achieved after 4–6 weeks, at which time parasitised blood samples were obtained by cardiac puncture using sodium heparin as an anticoagulant and diluted to a concentration of 1 × 10^6 trypomastigotes/mL. 10 µL of each of the dilutions of the study compounds and Bzn, with these being placed in a 96-well plate, and 90 µL of infected blood was added, providing a final volume of 100 µL per well. The microplates were incubated at 4 °C for 24 h, and concentrations of 20 µM, 10 µM, and 5 µM of each compound were considered in these experiments. Each evaluation was performed in triplicate. Wells with untreated blood trypomastigotes were used as a negative lysis control and Bzn as a positive control. Then, the degree of lysis of trypomastigotes was determined by their reduction in number using an optical microscope according to the Brener–Pizzi method. For this purpose, 5 μL of blood was placed between a slide and a 13 × 13 coverslip. Mobile trypomastigotes were counted in 15 microscope fields at 40× magnification. Quantification of the degree of lysis for each case was expressed as a percentage considering the number of viable trypomastigotes with respect to the negative control. The half-maximal lytic concentration (LC50) was determined by linear regression. The experiments were carried out in accordance with the recommendations and approval of the local Ethics and Research Committee (Approval number: ENCB/CEI/078/2020).

[4] = test system: T. cruzi trypomastigotes, NINOA strain; assay type: cell-based; details: SI = IC50 on J774 cells / LC50 T. cruzi trypomastigotes NINOA
Protocol: as §2

Row | Compound | NINOA Epi SI [1] | INC-5 Epi SI [2] | INC-5 Trypo SI [3] | NINOA Trypo SI [4]
1 | O=C(Cn1ccnc1[N+](=O)[O-])NCc1ccccc1 [Bzn, benznidazole, reference compound] | 42.9 | 8.38 | 4.11 | 2.36
2 | O=C(NC1CCN(C2=C(Cl)C(=O)c3ccccc3C2=O)CC1)c1cccc(Cl)c1 [Compound 7c, 3-Chloro-N-(1-(3-chloro-1,4-dioxo-1,4-dihydronaphthalen-2-yl)piperidin-4-yl)benzamide] | 48.0 | 21.9 | – | 0.37
3 | O=C(NC1CCN(C2=C(Cl)C(=O)c3ccccc3C2=O)CC1)c1cc([N+](=O)[O-])cc([N+](=O)[O-])c1 [Compound 7f, N-(1-(3-chloro-1,4-dioxo-1,4-dihydronaphthalen-2-yl)piperidin-4-yl)-3,5-dinitrobenzamide] | 25.2 | 13.6 | 0.25 | 0.32
4 | COc1ccc(C(=O)NC2CCN(C3=C(Cl)C(=O)c4ccccc4C3=O)CC2)cc1F [Compound 7h, N-(1-(3-chloro-1,4-dioxo-1,4-dihydronaphthalen-2-yl)piperidin-4-yl)-3-fluoro-4-methoxybenzamide] | 26.2 | 16.3 | 0.23 | 0.28
5 | O=C1C(Cl)=C(N2CCC(NC(=O)c3cccc4ccccc34)CC2)C(=O)c2ccccc21 [Compound 7j, N-(1-(3-chloro-1,4-dioxo-1,4-dihydronaphthalen-2-yl)piperidin-4-yl)-1-naphthamide] | 76.7 | 35.9 | 0.55 | 0.34
